A mixed list of measured activities; the numbers were collected in NIAID ChemDB.

Shared fields: whole-cell or culture tests; agent: HIV-1; read by: p24; measure: EC50

ECn is the concentration giving n% inhibition of infection, replication or growth. Lines come from different laboratories, so protocols vary. An empty or dashed field is not shown.

| SMILES | strain | cell line | mutations | result |
|---|---|---|---|---|
| CC(C)CN(C[C@@H](O)[C@H](Cc1ccccc1)NC(=O)O[C@H]1CCOC1)S(=O)(=O)c1ccc(F)c(F)c1 | IIIB | CEM |  | <40 µM |
| O=C(COc1ccc(F)cc1C(=O)c1ccccc1)Nc1ccccc1 | RF | C8166 |  | 0.0171 µM |
| Cc1ccc(C)n1-c1ccc(C(=O)O)c(O)c1 | RF X4 CLADE B | MT-2 |  | 1.69 µM |
| CC[C@H](C)[C@H](NC(=O)c1cnc2ccccc2n1)C(=O)N[C@@H](Cc1ccccc1)[C@H](O)CN(CC(C)C)S(=O)(=O)c1ccc(F)c(NC(C)=O)c1 | IIIB | CEM |  | <1.001 µM |
| Cc1cc(OCCCN(C)C)ccc1NC(=O)Cc1ccc(Cl)cc1C(=O)c1ccccc1 | RF | C8166 |  | 0.0062 µM |
| COc1ccc(S(=O)(=O)N(CC2CCCC2)C(=O)C(=O)C(=O)[C@@H](Cc2ccccc2)NC(=O)OC(C)(C)C)cc1 | IIIB | CEM |  | <1 µM |
| CC(C)=CCOc1cc(NC(=S)c2ccsc2C)ccc1Cl | NL4-3 | CEM + CEM-SS | RT-K101E | 0.006 µM |
| COc1ccc(-c2c(C)nc3c(N4CC[C@@H](NC(=O)C(F)(F)F)C4)cc(C)nn23)cc1OC |  | H9 |  | 0.9 µM |
| CC(C)CN(C[C@@H](O)[C@H](Cc1ccccc1)NC(=O)O[C@H]1CCOC1)S(=O)(=O)c1ccc2nonc2c1 | IIIB | CEM |  | <1 µM |
| CC(C)CN(C[C@@H](O)[C@H](Cc1ccc(F)cc1)NC(=O)O[C@H]1C2COC3OCC1C3C2)S(=O)(=O)c1ccc2nc(NC3CC3)sc2c1 | NL4-3 | MT-4 |  | 0.000049 µM |
| C=C(C)CN(C[C@@H](O)[C@H](Cc1ccccc1)NC(=O)O[C@@H]1CCOC1)S(=O)(=O)c1ccc(F)cc1 | IIIB | CEM |  | <1.001 µM |
| O=C(c1ccccc1)N(CCc1ccccc1)C[C@H](O)CN(CC1CCCC1)S(=O)(=O)c1nc2ccccc2o1 | IIIB | CEM |  | <1 µM |
| [N-]=[N+]=NCC(CO)OCn1ccc(=O)[nH]c1=O |  | MT-4 |  | >1000 µM |
| CCc1c(Sc2ccccc2)n(COCc2ccccc2)c(=O)[nH]c1=O | A012D | MT-4 |  | 0.0029 µM |
| CC(C)CN(C[C@@H](O)[C@H](Cc1ccccc1)NC(=O)O[C@@H]1CCOC1)S(=O)(=O)c1cccc(S(N)(=O)=O)c1 | IIIB | CEM |  | <1 µM |
| COc1ccc2c(c1)N(C(=O)OC(C)C)[C@@H](CSC)C(=S)N2 | MN: RS(HBY 097) | PBMC |  | >10 µM |
| CCN(CC)CCOc1ccc(NC(=O)COc2cc(OC)ccc2C(=O)c2ccccc2)cc1 | RF | C8166 |  | 0.0273 µM |
| CC(=O)N[C@@H]1CCN(c2cc(C)nn3c(-c4ccc(OC(F)(F)F)cc4)c(C)nc23)C1 |  | H9 |  | 0.2 µM |
| CC(=O)Nc1cc(S(=O)(=O)N(CC(C)C)C[C@@H](O)[C@H](Cc2ccccc2)NC(=O)OC(C)(C)C)ccc1F | IIIB | CEM |  | <1.001 µM |
| COc1ccc(S(=O)(=O)N(CCC(O)CN(CC(C)C)S(=O)(=O)c2ccccc2)CC2CCCC2)cc1 | IIIB | CEM |  | <1 µM |
| C=CCOC(=O)N[C@@H](Cc1ccccc1)[C@H](O)CN(CC1CCCC1)S(=O)(=O)c1ccc(F)cc1 | IIIB | CEM |  | <1 µM |
| Cc1c(O)cccc1C(=O)N[C@@H](CC(C)C)C(=O)N(Cc1ccccc1)N(CCO)C(=O)[C@@H]1CCCN1C(=O)OC(C)(C)C | IIIB | MOLT-4 |  | 0.3 µM |
| COc1ccc(-c2csc3c(N4CC[C@@H](NC(C)=O)C4)nc(C)nc23)cc1OC |  | H9 |  | >100 µM |
| CC(C)CN(CC(O)Cc1ccccc1C(=O)NC(C)(C)C)S(=O)(=O)c1ccccc1 | IIIB | CEM |  | <1 µM |
| CCOC(=O)N[C@@H](Cc1ccccc1)[C@H](O)CN(CC(C)C)S(=O)(=O)c1ccc(Cl)c(Cl)c1 | IIIB | CEM |  | <1.001 µM |
| CC(C)CN(C[C@@H](O)[C@H](Cc1ccccc1)NC(=O)OC(C)(C)C)S(=O)(=O)c1cccc(F)c1 | IIIB | CEM |  | <10 µM |
| Cc1cn(COC(CO)CN=[N+]=[N-])c(=O)[nH]c1=O |  | MT-4 |  | >1000 µM |
| C=CCOC(=O)N[C@@H](Cc1ccccc1)[C@H](O)CN(CC(C)C)S(=O)(=O)c1ccc(NC(C)=O)cc1 | IIIB | CEM |  | <1.001 µM |
| O=C(c1ccccc1)c1cc(Cl)ccc1OCc1nc2ccccc2[nH]1 | RF | C8166 |  | 0.0821 µM |
| COc1ccc(-c2c(C)nc3c(N4CC[C@@H](SC(C)=O)C4)cc(C)nn23)cc1OC |  | H9 |  | 0.3 µM |
| CC1(C)CC(NC(=O)C(=O)Nc2ccc(Cl)cc2)CC(C)(C)N1 | MN | MT-2 |  | 15.88 µM |
| Cc1c(O)cccc1C(=O)N[C@H](C(=O)N(Cc1ccccc1)N(CCO)C(=O)[C@@H]1CCCN1C(=O)OC(C)(C)C)[C@@H](C)O | IIIB | MOLT-4 |  | 103.5 µM |
| Nc1cccc(S(=O)(=O)N(CC2CCCC2)C[C@@H](O)CN(CCc2ccccc2)C(=O)O[C@@H]2COC3OCCC32)c1 | IIIB | CEM |  | <0.1 µM |
| COc1cccc(-c2c(C)nc3c(N4CC[C@@H](NC(C)=O)C4)cc(C)nn23)c1 |  | H9 |  | >1 µM |
| CC(C)CN(C[C@@H](O)[C@H](Cc1ccccc1)NC(=O)O[C@H]1C2COC3OCC1C3C2)S(=O)(=O)c1ccc2nc(NC3CC3)sc2c1 | NL4-3 | MT-4 |  | 0.0003 µM |
| CC(C)CN(C[C@@H](O)[C@H](Cc1ccccc1)NC(=O)O[C@H]1CCOC1)S(=O)(=O)c1ccc(F)c(F)c1 | IIIB | CEM |  | <10 µM |
| Cc1cn([C@H]2C=C[C@@H](CO)O2)c(=O)[nH]c1=O | JEW | PBMC |  | 0.098 µM |
| Cc1c(O)cccc1C(=O)N[C@@H](CC(C)C)C(=O)N(Cc1ccccc1)N(CO)C(=O)[C@@H]1CCCN1C(=O)OC(C)(C)C | IIIB | MOLT-4 |  | 18.4 µM |
| C=CCOC(=O)N[C@@H](Cc1ccccc1)[C@H](O)CN(CC1CCCC1)S(=O)(=O)c1ccc(Cl)cc1 | IIIB | CEM |  | <1.001 µM |
| [N-]=[N+]=NCC(CO)OCn1nc(Cc2ccccc2)c(=O)[nH]c1=O |  | MT-4 |  | >1000 µM |
| CC(=O)Nc1ccc(S(=O)(=O)N(CC(C)C)C[C@@H](O)[C@H](Cc2ccccc2)NC(=O)OC(C)C)cc1 | IIIB | CEM |  | <10 µM |
| CC(C)CN(C[C@H](O)C[C@H](Cc1ccccc1)CN1CSCC1C(=O)NC(C)(C)C)S(=O)(=O)c1ccccc1 | IIIB | CEM |  | <1 µM |
| COc1cc(O)c(CC=C(C)C)c(O)c1C(=O)/C=C/c1ccc(O)cc1 | IIIB | C8166 |  | 3.21 µM |
| C=CCOC(=O)N[C@@H](Cc1ccccc1)[C@H](O)CN(CC1CCCC1)S(=O)(=O)c1ccc2c(c1)CCN2C(C)=O | IIIB | CEM |  | <1 µM |
| COc1ccc(-c2c(C)nc3c(N4CC[C@@H](NC(C)=O)C4)cc(-c4ccccc4)nn23)cc1OC |  | H9 |  | 0.7 µM |
| CC(C)[C@H](NC(=O)OCc1ccccn1)C(=O)N[C@@H](Cc1ccccc1)[C@@H](O)C[C@H](Cc1ccccc1)NC(=O)OCc1cccnc1 | NL4-3 | MT-4 | PR-M46I V82T | <1.5 µM |
| CC(C)CN(C[C@@H](O)[C@H](Cc1ccccc1)NC(=O)OC[C@@H]1COC(=O)N1)S(=O)(=O)c1ccc(F)cc1 | IIIB | CEM |  | <0.101 µM |
| C=CCOC(=O)N[C@@H](Cc1ccccc1)[C@H](O)CN(CC(C)C)S(=O)(=O)c1ccc(NC(C)=O)cc1 | IIIB | CEM |  | <10 µM |

For reference, 5 entries again:

SMILES	strain	cell line	mutations	result
COc1cccc(-c2c(C)nc3c(N4CC[C@@H](NC(C)=O)C4)cc(C)nn23)c1		H9		>1 µM
CCc1c(Sc2ccccc2)n(COCc2ccccc2)c(=O)[nH]c1=O	A012D	MT-4		0.0029 µM
CC[C@H](C)[C@H](NC(=O)c1cnc2ccccc2n1)C(=O)N[C@@H](Cc1ccccc1)[C@H](O)CN(CC(C)C)S(=O)(=O)c1ccc(F)c(NC(C)=O)c1	IIIB	CEM		<1.001 µM
CC(C)CN(C[C@@H](O)[C@H](Cc1ccccc1)NC(=O)OC(C)(C)C)S(=O)(=O)c1cccc(F)c1	IIIB	CEM		<10 µM
[N-]=[N+]=NCC(CO)OCn1nc(Cc2ccccc2)c(=O)[nH]c1=O		MT-4		>1000 µM